Anti-infective test results gathered from many reports (values: NIAID ChemDB through PubChem).

Shared fields: target-level tests; organism: HIV-1; target: Protease; method: HPLC; endpoint: IC50

Blank or dashed fields: not listed here. ICn is the concentration giving n% inhibition. Rows are shuffled and stem from different studies.

structure | setting | changes | value
NC(=O)C[C@H](NC(=O)OCc1ccccc1)C(=O)N[C@@H](Cc1ccccc1)[C@H](O)C(=O)N1CCC[C@H]1C(=O)NC1CCCCC1 |  |  | 0.32 µM
CC(C)(C)OC(=O)N[C@@H](Cc1ccccc1)[C@H](O)CNC[C@@H](O)[C@H](Cc1ccccc1)NC(=O)C1(O)CCc2ccccc21 | pH 5.5 |  | <10 µM
Cc1ccc(Nc2cccc3c2C(=O)c2cccc(Nc4ccc(C)cc4S(=O)(=O)O)c2C3=O)c(S(=O)(=O)O)c1 |  |  | 20 µM
CC(C)(C)OC(=O)N[C@@H](Cc1ccccc1)[C@H](O)CNC[C@@H](O)[C@H](Cc1ccccc1)NC(=O)c1ccc2ccccc2n1 | pH 5.5 |  | >10 µM
CC[C@H](C)[C@H](NC(=O)[C@@H]1CCCN1C(=O)[C@H](O)[C@H](Cc1ccccc1)NC(=O)[C@H](CC(N)=O)NC(=O)[C@H](Cc1ccccc1)NC(=O)[C@@H](N)CO)C(=O)N[C@H](C(N)=O)C(C)C |  |  | 0.005 µM
CC(C)c1ccccc1SC1=C(O)CC(CCCCC(=O)Nc2ccccc2)(c2ccccc2)OC1=O | pH 4.7 |  | 0.091 µM
CCc1ccccc1C[C@H](NC(=O)OC(C)(C)C)[C@H](O)CNC[C@@H](O)[C@H](Cc1ccccc1)NC(=O)OC(C)(C)C | pH 5.5 |  | <10 µM
CC(C)c1ccccc1SC1=C(O)CC(CCCC(=O)NCc2ccccc2)(c2ccccc2)OC1=O | pH 4.7 |  | 0.081 µM
CC(C)(C)NC(=O)[C@H]1N(C(=O)[C@@H](O)[C@H](Cc2ccccc2)NC(=O)[C@H](CC(N)=O)NC(=O)COc2ccccc2-c2ccccc2)CSC1(C)C |  |  | 0.0028 µM
CC(C)c1ccccc1SC1=C(O)CC(CCCC(=O)N2CCNCC2)(c2ccccc2)OC1=O | pH 4.7 |  | 0.564 µM
CC(C)[C@H](NC(=O)CCc1c[nH]c2ccccc12)C(=O)N[C@@H](Cc1ccccc1)[C@H](O)CNC[C@@H](O)[C@H](Cc1ccccc1)NC(=O)OC(C)(C)C | pH 5.5 |  | <10 µM
O=C(O)c1cc2ccccc2c(N=Nc2c(O)cc(S(=O)(=O)O)c3ccccc23)c1O |  |  | 20 µM
CCCCCC1(c2ccccc2)CC(O)=C(Sc2ccccc2C(C)C)C(=O)O1 | pH 4.7 |  | 0.088 µM
O=S(=O)(O)c1ccccc1N=Nc1c(S(=O)(=O)O)cc2cc(S(=O)(=O)O)c(N=Nc3ccccc3S(=O)(=O)O)c(O)c2c1O |  |  | 290 µM
CC(C)(C)OC(=O)N[C@@H](Cc1ccccc1)[C@H](O)CNC[C@@H](O)[C@H](Cc1ccccc1)NC(=O)OC1CCCOC1 | pH 5.5 |  | <10 µM
CCN(Cc1cccc(S(=O)(=O)[O-])c1)c1ccc(C(=C2C=CC(=[N+](CC)Cc3cccc(S(=O)(=O)O)c3)C=C2)c2ccc(S(=O)(=O)O)cc2)cc1 |  |  | 8 µM
CC(C)(C)OC(=O)N[C@@H](Cc1ccccc1)[C@H](O)CNC[C@@H](O)[C@H](CC1CCCCC1)NC(=O)OC(C)(C)C | pH 5.5 |  | <10 µM
CC(C)[C@H](NC(=O)N(C)Cc1ccccn1)C(=O)N[C@@H](Cc1ccccc1)[C@H](O)[C@H](O)[C@H](Cc1ccccc1)NC(=O)[C@@H](NC(=O)N(C)Cc1ccccn1)C(C)C |  | PR-A71T | 0.0014 µM
O=S(=O)(O)c1cc(O)c2c(O)c(N=Nc3ccccc3)c(S(=O)(=O)O)cc2c1 |  |  | 590 µM
CC(C)(C)OC(=O)N[C@@H](Cc1ccccc1)[C@H](O)CNC[C@@H](O)[C@H](Cc1ccccc1)NC(=O)OCc1cccnc1 | pH 5.5 |  | <10 µM
CC(C)(C)OC(=O)N[C@@H](Cc1ccccc1)[C@H](O)CNC[C@@H](O)[C@H](Cc1ccc(OCC(=O)N2CCOCC2)cc1)NC(=O)OC(C)(C)C |  |  | 0.034 µM
CC(C)(C)OC(=O)[C@@H]1CCCN1C(=O)[C@@H](O)[C@H](Cc1ccccc1)NC(=O)[C@H](CC(N)=O)NC(=O)OCc1ccccc1 |  |  | 10 µM
CC(C)(C)OC(=O)N[C@@H](Cc1ccccc1)[C@H](O)CNC[C@@H](O)[C@H](Cc1ccccc1)NC(=O)C(C)(C)CO | pH 5.5 |  | ~10 µM
CC(C)(C)NC(=O)[C@@H]1CCCN1C(=O)[C@@H](O)[C@H](Cc1ccccc1)NC(=O)[C@H](CC(N)=O)NC(=O)OCc1cccc2ccccc12 |  |  | 0.0035 µM
CC(C)c1ccccc1SC1=C(O)CC(CCCCC(=O)N2CCN(C(=O)OC(C)(C)C)CC2)(c2ccccc2)OC1=O | pH 4.7 |  | 0.127 µM